Measured values from several laboratories, pooled; numbers as filed in NIAID ChemDB.

All rows: tests in culture; species: Candida albicans

A number after MIC or MFC names an inhibition level or a share of isolates.

structure | strain or isolate | read by | read-out | value
Cc1ccc(C(=O)CSc2nc3c(sc(=S)n3-c3ccccc3)c(=O)n2C)cc1 | ATCC 90018 | - | MIC | 64 µg/mL
N=C(N)c1ccc2cc(/C=C/c3cc4ccc(C(=N)N)cc4o3)oc2c1 | - | - | MIC | 60 µg/mL
Cc1cc(=O)n(-c2ccc(N=Nc3c(-c4c(O)c5ccccc5n(C)c4=O)[nH][nH]c3=O)cc2)n1C | ATCC 10231 | - | MIC | >100 µg/mL
C=CCSS(=O)CC=C | ATCC 10231 | broth dilution | MIC90 | 1000 µg/mL
N=C(N)c1ccc(OCCCCC(=O)O)cc1 | A39 | - | MIC80 | >100 µg/mL
Cn1c(SCC(=O)c2ccccc2)nc2c(sc(=S)n2-c2ccccc2)c1=O | ATCC 90018 | - | MIC | 128 µg/mL
CO/N=C(\c1cc2ccccc2o1)C1CC(C)(c2ccccc2)C1 | ATCC 10231 | - | MIC | 0.625 µg/mL
CCC(C)n1ncn(-c2ccc(N3CCN(c4ccc(OC[C@H]5CO[C@](Cn6cncn6)(c6ccc(Cl)cc6Cl)O5)cc4)CC3)cc2)c1=O | E81113 | - | MIC | 1.56 µg/mL
COc1cc(O)c2c(c1)C(=O)c1c(cc3c(c1O)-c1c(cc(C)c(C(=O)NC(CO)C(=O)O)c1O)[C@H](OC1OC(C)C(O)C(OC4OCC(O)C(O)C4O)C1O)C3O)C2=O | ATCC 38247 | - | MIC | 1.6 µg/mL
COc1ccc(-c2[nH]c3ccccc3c2-c2c(CN)c(N)n3c(nc4ccccc43)c2CN)cc1 | MTCC 227 | broth dilution | MIC | 500 µg/mL
N=C(N)c1ccc(-c2cc3cc(C(=N)N)ccc3s2)cc1 | - | - | MIC | 60 µg/mL
CCOC1Oc2ccccc2C(=O)/C1=C\Nc1ccc(C(=O)O)c(O)c1 | - | - | MIC | 10 µg/mL
CC1=[N+](C)N(c2ccccc2)C(=O)C1Nc1nc(Nc2ccc(C#N)cc2)nc(Oc2cc(=O)n(C)c3ccccc23)n1 | MTCC 183 | agar | MIC | 500 µg/mL
Cn1c(=O)c(-c2[nH][nH]c(=O)c2N=Nc2ccccc2Cl)c(O)c2ccccc21 | ATCC 10231 | - | MIC | 50 µg/mL
CC(C)n1c(=O)c2sc3c(=O)n(C(C)C)c(=O)c3sc2c1=O | ATCC 90028 | - | MIC | 0.8 µg/mL
Cn1c(=O)cc(Oc2nc(Nc3ccc(C#N)cc3)nc(Nc3cnccn3)n2)c2ccccc21 | MTCC 183 | agar | MIC | >500 µg/mL
CCCCCCCCCCCCCC[C@H](N)C(=O)N[C@H](C(=O)O)C1O[C@@H](n2ccc(=O)[nH]c2=O)[C@H](O)[C@@H]1O | 124 (nikkomycin-S) | - | MIC | >320 µg/mL
COc1cc(NC(C)CCCN)c2nc(C(C)(C)C)cc(C)c2c1Oc1cccc(C(F)(F)F)c1 | - | - | MIC | 20 µg/mL
COc1cccc(/C=c2\c(=O)[nH][nH]\c2=C2/C(=O)c3ccccc3N(C)C2=O)c1 | ATCC 10231 | - | MIC | >100 µg/mL
O=c1oc(=NCc2ccccc2)c2sc3c(=O)oc(=NCc4ccccc4)c3sc12 | ATCC 90028 | - | MIC | >51.2 µg/mL
CC(=O)C[C@H]1C[C@H]2[C@H]([C@@H]3c4[nH]c5ccccc5c4CCN13)[C@H](O)C13CC/C=C\CCCCN1CC21CC/C=C\CCCNC13 | - | - | MIC | 20 µg/mL
COc1ccc2nc(Nc3nc(Nc4ccc(C#N)cc4)nc(Oc4cc(=O)n(C)c5ccccc45)n3)sc2c1 | MTCC 183 | agar | MIC | 100 µg/mL
CN1CCN(c2nc(Nc3ccc(C#N)c(C(F)(F)F)c3)nc(Oc3ncnc4ccccc34)n2)CC1 | MTCC 183 | - | MIC | >100 µg/mL
CCCCCOc1ccc(-c2cc(-c3ccc(C(=O)N[C@H]4C[C@@H](O)[C@@H](O)NC(=O)[C@@H]5[C@@H](O)[C@@H](C)CN5C(=O)[C@H]([C@H](O)CC(N)=O)NC(=O)[C@H]([C@H](O)[C@@H](O)c5ccc(O)c(OS(=O)(=O)O)c5)NC(=O)[C@@H]5C[C@@H](O)CN5C(=O)[C@H]([C@@H](C)O)NC4=O)cc3)no2)cc1 | 3 strains | - | MIC | ≤0.0078 µg/mL
N=C(N)c1ccc(OCCCCCOc2ccc(/C(N)=N\O)cc2)cc1 | A39 | - | MFC | >100 µg/mL
Cc1ccc2c(c1)nc1c(CN)c(-c3c(-c4ccc(C#N)cc4)[nH]c4ccccc34)c(CN)c(N)n12 | MTCC 227 | broth dilution | MIC | >1000 µg/mL
OC(Cn1cncn1)(Cn1cncn1)c1ccc(F)cc1F | ATCC 10231 | - | MIC | 313 µg/mL
N/C(=N\O)c1ccc(OCCCCCOc2ccc(/C(N)=N\O)cc2)cc1 | A39 | - | MIC80 | >100 µg/mL
CC(O)Cn1sc2ccccc2c1=S | - | - | MIC | 15 µg/mL
C/C(=N\NC([S-])=Nc1ccccc1[N+](=O)[O-])c1ccccn1.CCC[CH2][Sn+3] | ATCC 18804 | broth dilution | MIC | 7.13 µM
COC1OC(C)(c2ccc(-c3ccccc3)cc2)C(O)CC1N1CCOCC1 | - | - | MIC | >32 µg/mL
CCn1c(SCC(=O)c2ccc(Br)cc2)nc2c(sc(=S)n2-c2ccccc2)c1=O | ATCC 90018 | - | MIC | 64 µg/mL
c1ccc(-c2ccc(C(c3ccccc3)n3ccnc3)cc2)cc1 | - | - | MBC | 19.1 µg/mL
N=C(N)c1ccc(OCCCCCO)cc1 | A39 | - | MIC80 | >100 µg/mL
Cn1c(=O)c(-c2[nH][nH]c(=O)c2C=Nc2ccc(Cl)cc2)c(O)c2ccccc21 | ATCC 10231 | - | MIC | 25 µg/mL
CC(CO)(CO)n1sc2ccccc2c1=S | - | - | MIC | 20 µg/mL
O/N=C(\c1ccccc1)c1oc2ccccc2c1Cn1cncn1 | NRRL Y-27077 | - | MIC | 12.5 µg/mL
CN1C(=O)/C(=c2/[nH][nH]c(=O)/c2=C\c2ccccc2)C(=O)c2ccccc21 | ATCC 10231 | - | MIC | 50 µg/mL
CCC(C)n1ncn(-c2ccc(N3CCN(c4ccc(OC[C@H]5CO[C@](Cn6cncn6)(c6ccc(Cl)cc6Cl)O5)cc4)CC3)cc2)c1=O | 5 isolates fluconazole-susceptible | - | Geometric mean MIC | 0.142 µg/mL
CCn1c(SCC(=O)c2ccc(Cl)cc2)nc2c(sc(=S)n2-c2ccccc2)c1=O | ATCC 90018 | - | MIC | 64 µg/mL
CC(C)(CO)n1sc2ccccc2c1=S | - | - | MIC | 20 µg/mL
Clc1ccc(/C(Cn2ccnc2)=N\Nc2c(Cl)cccc2Cl)s1 | B | - | MIC | 6.2 µg/mL
CCC[CH2][Sn+3].[S-]C(=Nc1ccccc1Cl)N/N=C(\c1ccccc1)c1ccccn1 | ATCC 18804 | broth dilution | MIC | 26.12 µM
O=C(c1ccccc1)c1oc2ccc(Cl)cc2c1Cn1cncn1 | Clinical isolate | - | MIC | 25 µg/mL
COC1OC(C)(c2ccc(-c3ccccc3)cc2)C(O)CC1N(C)C | - | - | MIC | >32 µg/mL
CN[C@H]1CC[C@@H](c2ccc(Cl)c(Cl)c2)c2ccccc21 | SC5314 | broth dilution | MFC | 48 µg/mL
CCn1c(SCC(=O)c2ccc(C)cc2)nc2c(sc(=S)n2-c2ccccc2)c1=O | ATCC 90018 | - | MIC | 64 µg/mL
Cc1ccc(-c2[nH]c3ccccc3c2-c2c(CN)c(N)n3c(nc4ccccc43)c2CN)cc1 | MTCC 227 | broth dilution | MIC | 1000 µg/mL
CC(=CCC/C=C(\C)CCC=C(C)CCCN(C)C)CC/C=C(\C)CCC1OC1(C)C | ATCC 10231 | - | MIC | 30 µM
C/C(CC(=O)Nc1ccccc1C)=N\c1ncccc1O | - | agar diffusion / agar | MIC | 600 µg/mL
Cc1c(/C=C/c2oc3ccc(C(=N)N)cc3c2C)oc2ccc(C(=N)N)cc12 | - | - | MIC | >60 µg/mL
OCCCN=c1ssc2ccccc12 | - | - | MIC | 15 µg/mL
COc1c(CN(C)C)cccc1C1OC(c2ccncc2)=NN1C(C)=Nc1ccccc1 | MTCC 227 | - | MIC | 12.5 µg/mL
CN1C(=O)/C(=c2/[nH][nH]c(=O)/c2=C\c2ccc(N)cc2)C(=O)c2ccccc21 | ATCC 10231 | - | MIC | >100 µg/mL
C/C(=N\NC([S-])=Nc1ccccc1F)c1ccccn1.CCC[CH2][Sn+3] | ATCC 18804 | broth dilution | MIC | 7.49 µM
O=C(c1ccc(Cl)cc1)c1oc2ccccc2c1Cn1cncn1 | Clinical isolate | - | MIC | 25 µg/mL
C=CCc1ccc(OC)c(OC)c1 | 3031 | turbidity | MIC90 | 350 µg/mL
CCCCn1c(=O)c2sc3c(=O)n(CCCC)c(=O)c3sc2c1=O | ATCC 90028 | - | MIC | 1.6 µg/mL
COc1ccc(Br)cc1/C=N/NC(=O)Cc1ccc([N+](=O)[O-])cc1 | - | MTT | MIC | >150 µM
Clc1ccccc1N1CCN(CCCc2nc3ccc(Br)cc3[nH]2)CC1 | ATCC 10231 | - | MIC | 1250 µg/mL
COC1C=CC(=O)C(C)(c2ccc(-c3ccccc3)cc2)O1 | - | - | MIC | 16 µg/mL
O=C(c1ccc(Cl)cc1)c1oc2ccccc2c1Cn1ccnc1 | Clinical isolate | - | MIC | 25 µg/mL
OCCCn1sc2ccccc2c1=S | - | - | MIC | 15 µg/mL
O=C(Cc1ccccc1F)N/N=C/c1cc([N+](=O)[O-])ccc1Cl | - | MTT | MIC | 75 µM
Cn1c(=O)c(-c2[nH][nH]c(=O)c2C=Nc2ccc(N)cc2)c(O)c2ccccc21 | ATCC 10231 | - | MIC | 50 µg/mL
COc1ccc2c(C)c(/C(=N/O)c3ccccc3)oc2c1 | NRRL Y-27077 | - | MIC | 12.5 µg/mL
N#Cc1ccc(-c2[nH]c3ccccc3c2-c2c(CN)c(N)n3c(nc4ccccc43)c2CN)cc1 | MTCC 227 | broth dilution | MIC | 500 µg/mL
Cn1c(=O)c(-c2[nH][nH]c(=O)c2N=Nc2ccccc2)c(O)c2ccccc21 | ATCC 10231 | - | MIC | >100 µg/mL
Cn1c(=O)cc(Oc2nc(Nc3ccc(C#N)cc3)nc(Sc3nnc(-c4ccncc4)o3)n2)c2ccccc21 | MTCC 183 | agar | MIC | 200 µg/mL
O/N=C(\c1ccc(Cl)cc1)c1oc2ccccc2c1Cn1ccnc1 | Clinical isolate | - | MIC | 25 µg/mL
Cc1ccc2c(c1)nc1c(CN)c(-c3c(-c4ccccc4)[nH]c4ccccc34)c(CN)c(N)n12 | MTCC 227 | broth dilution | MIC | 1000 µg/mL
Cn1c(=O)cc(Oc2nc(Nc3ccc(C#N)cc3)nc(Oc3cc(=O)oc4ccccc34)n2)c2ccccc21 | MTCC 183 | agar | MIC | 250 µg/mL
OC(Cn1cncn1)(Cn1cncn1)c1ccc(F)cc1F | 2881 | - | MIC | 6.25 µg/mL
O=C(c1ccccc1)c1oc2ccccc2c1Cn1cncn1 | Clinical isolate | - | MIC | 25 µg/mL
Cc1ccc(-c2[nH]c3ccccc3c2-c2c(CN)c(N)n3c(nc4cc(C)ccc43)c2CN)cc1 | MTCC 227 | broth dilution | MIC | >1000 µg/mL
N=C(N)c1ccc2oc(C(=O)Nc3ccc(C4=NCCN4)cc3)cc2c1 | - | - | MIC | >60 µg/mL
CC1(c2ccccc2)CC(/C(=N/OCc2ccccc2)c2cc3ccccc3o2)C1 | ATCC 10231 | - | MIC | 2.5 µg/mL
Cc1ccc2oc(C(=O)c3ccccc3)c(C)c2c1 | Clinical isolate | - | MIC | 50 µg/mL

The last 9 rows once more:

structure	strain or isolate	read by	read-out	value
O/N=C(\c1ccc(Cl)cc1)c1oc2ccccc2c1Cn1ccnc1	Clinical isolate	-	MIC	25 µg/mL
Cc1ccc2c(c1)nc1c(CN)c(-c3c(-c4ccccc4)[nH]c4ccccc34)c(CN)c(N)n12	MTCC 227	broth dilution	MIC	1000 µg/mL
Cn1c(=O)cc(Oc2nc(Nc3ccc(C#N)cc3)nc(Oc3cc(=O)oc4ccccc34)n2)c2ccccc21	MTCC 183	agar	MIC	250 µg/mL
OC(Cn1cncn1)(Cn1cncn1)c1ccc(F)cc1F	2881	-	MIC	6.25 µg/mL
O=C(c1ccccc1)c1oc2ccccc2c1Cn1cncn1	Clinical isolate	-	MIC	25 µg/mL
Cc1ccc(-c2[nH]c3ccccc3c2-c2c(CN)c(N)n3c(nc4cc(C)ccc43)c2CN)cc1	MTCC 227	broth dilution	MIC	>1000 µg/mL
N=C(N)c1ccc2oc(C(=O)Nc3ccc(C4=NCCN4)cc3)cc2c1	-	-	MIC	>60 µg/mL
CC1(c2ccccc2)CC(/C(=N/OCc2ccccc2)c2cc3ccccc3o2)C1	ATCC 10231	-	MIC	2.5 µg/mL
Cc1ccc2oc(C(=O)c3ccccc3)c(C)c2c1	Clinical isolate	-	MIC	50 µg/mL

Neighbouring rows are from separate reports. An empty or dashed field is not shown.